# Sequence variants of PSTVd stem 3 after infection

Values reported by Wu et al. 2024 (doi:10.1371/journal.ppat.1012142).

Region: stem 3 of PSTVd (intermediate strain), upper and lower strand joined, each 5' to 3', the first 8 letters being the upper strand. Wild type: GUGGUUCCGGAACCGC. Varied positions (N): GUGGUUCCGNANNCNN.

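A pool of all variants was put on leaves of three Nicotiana benthamiana plants. Samples came from the inoculated region at 5 days, the leaf margin at 10 and upper systemic leaves at 12.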

Numbers give reads per thousand; 0 = not seen among the reads, higher = more abundant.
Each value is the mean of three plants.
"Pool" is the share in the plasmid pool used as inoculum, on the same scale.
The inoculated region was read from the minus strand, the other sites from the plus strand.
With 27,691-54,225 reads a sample, very low values are single reads.
The authors trace changes outside the varied positions to PCR and sequencing errors or to mutation in the plant; presence does not show that a variant is infectious alone.
Wild type was 17.3 per thousand in the pool and the most common sequence in every sample (inoculated region 330, 345, 235; leaf margin 794, 766, 816; systemic leaves 830, 792, 869).

* GUGGUUCCGAACCCUG (pool 0.769) -> inoculated region 0.369; leaf margin 0.0120; systemic leaves 0
* GUUGUUCCGGAUCCCG (pool 0.0154) -> inoculated region 0; leaf margin 0; systemic leaves 0
* GGGGUUCCGGAGACGU (pool 0.0154) -> inoculated region 0; leaf margin 0; systemic leaves 0
* GUGGUUCCGUAAGCUU (pool 0.970) -> inoculated region 0.263; leaf margin 0.0106; systemic leaves 0
* GUGGUUCCGAACACGU (pool 0.877) -> inoculated region 0.855; leaf margin 0.0456; systemic leaves 0
* GUGGUUCCGAAAGCCA (pool 0.816) -> inoculated region 0.262; leaf margin 0; systemic leaves 0
* GUGGUUCCGCAAUCAA (pool 1.69) -> inoculated region 0.767; leaf margin 0.00944; systemic leaves 0.112
* GUGGUUCCGUAGGCUU (pool 1.00) -> inoculated region 0.721; leaf margin 0.518; systemic leaves 0
* GUGGUUCCGCAUACCC (pool 0.677) -> inoculated region 0.327; leaf margin 0; systemic leaves 0
* GUGGUUCCGGACCCCC (pool 3.48) -> inoculated region 1.30; leaf margin 0.0106; systemic leaves 0.0870
* GUGGUUCCGAAGUCUU (pool 1.12) -> inoculated region 0.688; leaf margin 1.04; systemic leaves 1.11
* GUGGUUCCGUAACCGA (pool 1.12) -> inoculated region 0.242; leaf margin 0.0120; systemic leaves 0.0186
* GUGGUUCCGGACCCAC (pool 0.769) -> inoculated region 0.380; leaf margin 0; systemic leaves 0
* GUGGUUCCGCACGCCG (pool 0.662) -> inoculated region 0.276; leaf margin 0.00944; systemic leaves 0
* GUGGUUCCGGACGCCA (pool 0.708) -> inoculated region 0.389; leaf margin 0.0120; systemic leaves 0
* GUGGUUCCGAAAACUC (pool 0.939) -> inoculated region 0.297; leaf margin 0; systemic leaves 0.00811
* GUGGUUCCGUAGUCCU (pool 0.893) -> inoculated region 0.729; leaf margin 0.449; systemic leaves 0.00615
* GUGGUUACGCAGACUU (pool 0.0154) -> inoculated region 0; leaf margin 0; systemic leaves 0
* GUGGCUCCGAACGCAA (pool 0.0154) -> inoculated region 0; leaf margin 0; systemic leaves 0
* GUGGUUACGCAAUCGA (pool 0.0154) -> inoculated region 0; leaf margin 0; systemic leaves 0
* GUGGUUCCGUACGCCG (pool 0.785) -> inoculated region 0.378; leaf margin 0.0215; systemic leaves 0
* GUGGUUCCGCACACCC (pool 0.877) -> inoculated region 0.323; leaf margin 0.0215; systemic leaves 0
* GUGGUUCCGGACCCGC (pool 1.59) -> inoculated region 1.28; leaf margin 0.620; systemic leaves 0.719
* GUGGUUCCGGACGCCG (pool 0.893) -> inoculated region 0.402; leaf margin 0.0226; systemic leaves 0
* GUGGUUCCGCACGCCC (pool 0.970) -> inoculated region 0.382; leaf margin 0.0361; systemic leaves 0

Excerpt, the final 3 entries:

| sequence | pool | inoculated region | leaf margin | systemic leaves |
|---|---|---|---|---|
| GUGGUUCCGGACCCGC | 1.59 | 1.28 | 0.620 | 0.719 |
| GUGGUUCCGGACGCCG | 0.893 | 0.402 | 0.0226 | 0 |
| GUGGUUCCGCACGCCC | 0.970 | 0.382 | 0.0361 | 0 |